Measured values from several laboratories, pooled; numbers as filed in NIAID ChemDB.

Shared fields: tests in culture

Percent inhibition refers to the dose given; in toxicity tests it is the harm to the cells. An empty or dashed field is not shown. ECn is the concentration giving n% inhibition of infection, replication or growth. MIC50, MIC90 and the like: level of inhibition, or share of isolates inhibited. Neighbouring rows are from separate reports.

smiles	agent	strain or isolate	cells	method	read-out	dose	result
O=C(NNC(=O)Nc1cc(C(F)(F)F)cc(C(F)(F)F)c1)Nc1ccccc1	Escherichia coli	ES142	-	-	MIC	-	>200 µM
CC(=O)N[C@H]1[C@H]([C@H](O)[C@H](O)CO)OC(C(=O)O)=C[C@@H]1N=C(N)N	Influenza A virus	H1N1 A/NWS/33	MDCK	visual reading	EC50	-	60 µM
O=c1[nH]c(=O)n([C@H]2C[C@H](O)[C@@H](CO)O2)cc1/C=C/Br	Varicella zoster virus	HIRAI	HELF	plaque count	inhibition	0.001 µg/mL	4%
O=C(NCCc1ccccc1)Nc1nc2ccc(F)cc2s1	HIV-2	-	MT-4	cytopathic effect / XTT	inhibition	10 µg/mL	12%
Nc1ncnc2c1ncn2[C@@H]1CC[C@@H](O)[C@H]1O	Measles virus	TN1994	CV-1	cytopathic effect	EC50	-	0.1 µg/mL
Nc1nc2c(ncn2COCCO)c(=O)[nH]1	Varicella zoster virus	Ohtomo	HELF	plaque count	inhibition	10 µg/mL	100%
CCOC(=O)c1c(C)nc(NCCCCNc2ccnc3cc(Cl)ccc23)nc1-c1ccccc1	Cryptococcus neoformans	ATCC 62066	-	-	MIC99	-	8 µg/mL
Cc1nc(NC(=O)NCCc2ccccc2)sc1C	HIV-2	-	MT-4	cytopathic effect / XTT	inhibition	0.1 µg/mL	13%
O=C(NNC(=O)Nc1ccccc1C(F)(F)F)Nc1cc(C(F)(F)F)cc(C(F)(F)F)c1	Klebsiella pneumoniae	KL21	-	-	MIC	-	>422 µM
O=c1[nH]c(=O)n([C@@H]2O[C@H](CO)[C@@H](O)[C@@H]2O)cc1/C=C/Cl	Varicella zoster virus	Kawaguchi	HELF	plaque count	inhibition	0.0001 µg/mL	15%
NCS(=O)(=O)O	Adenovirus	TYPE 3	Human embryonic lung cells	cytopathic effect	inhibition	5 µg/mL	0%
CCc1cn([C@@H]2O[C@H](CO)[C@@H](O)[C@@H]2O)c(=O)[nH]c1=O	Varicella zoster virus	Asahikawa	HELF	plaque count	inhibition	10 µg/mL	0%
Oc1ccccc1N=Cc1ccc(F)cc1	Cryptococcus gattii	547/OTTI-97-PI-10	-	-	MIC99	-	11.3 µg/mL
Nc1ncnc2c1ncn2[C@@H]1C=C[C@@H](O)[C@H]1O	Measles virus	TN1994	CV-1	cytopathic effect	EC50	-	0.1 µg/mL
O=S(=O)([O-])c1cccc(O)c1	Rhinovirus	-	Human embryonic lung cells	cytopathic effect	inhibition	5 µg/mL	0%
CCOC(=O)c1c(C)nc(OCCCNc2ccnc3cc(Cl)ccc23)nc1-c1ccccc1	Cryptococcus gattii	L24/01	-	-	MIC99	-	8 µg/mL
Nc1ncnc2c1ncn2[C@@H]1C[C@H](N)[C@@H](O)[C@H]1O	Measles virus	TN1994	CV-1	neutral red	EC50	-	0.6 µg/mL
C=C/C(C)=C/[C@@]1(C)SC(=O)C(C)=C1O	Escherichia coli	SJ261 (emrB::Tn10 kan)	-	-	MIC	-	25 µM
Oc1ccccc1N=Cc1cccc(O)c1O	Cryptococcus gattii	ATCC 32608	-	-	MIC99	-	5.7 µg/mL
N#Cc1csc(NC(=O)NCCc2ccccc2)n1	HIV-2	-	MT-4	RT activity	inhibition	10 µg/mL	94%
CCC(O)CN(NC(=O)Nc1cc(C(F)(F)F)cc(C(F)(F)F)c1)C(=O)Nc1cc(C(F)(F)F)cc(C(F)(F)F)c1	Escherichia coli	ES142	-	-	MIC	-	>300 µM
O=C(NCCc1ccccc1)Nc1nc2ccccc2s1	HIV-2	-	MT-4	RT activity	inhibition	0.1 µg/mL	1%
O=c1[nH]c(=O)n([C@H]2C[C@H](O)[C@@H](CO)O2)cc1I	Varicella zoster virus	KANNO	HELF	plaque count	inhibition	1 µg/mL	25%
N#Cc1cc([N+](=O)[O-])ccc1Oc1ccc(Cl)c(Cl)c1	Coxsackie virus	TYPE A21	VERO	-	inhibition	0.048 µg/mL	68%
CC(C)CS[C@H]1C[C@@H](n2cnc3c(N)ncnc32)[C@H](O)[C@@H]1O	Measles virus	-	CV-1	cytopathic effect	EC50	-	100 µg/mL
Cc1ccnc(NC(=O)NCCc2ccccc2)n1	HIV-2	-	MT-4	RT activity	inhibition	10 µg/mL	27%
Nc1ncnc2c1ncn2[C@@H]1C[C@H](O)[C@@H](O)[C@H]1O	Measles virus	-	CV-1	cytopathic effect	EC50	-	1 µg/mL
O=C(NCCc1ccccc1)Nc1nc(C(F)(F)F)cs1	HIV-2	-	MT-4	RT activity	inhibition	1 µg/mL	95%
C=CCc1ccc(O)c(OC)c1	Candida glabrata	ATCC 90030	-	turbidity	MIC90	-	490 µg/mL
CCCCCCCCCCCCOC(=O)[C@]1(O)C[C@@H](O)[C@@H](O)[C@H](OC(=O)/C=C/c2ccc(O)c(O)c2)C1	Aspergillus parasiticus	UMIP 1142.76	-	absorbance	MIC80	-	1500 µg/mL
CCC(CC)O[C@@H]1C=C(C(=O)O)C[C@H](N)[C@H]1NC(C)=O	Influenza A virus	H1N1 isolate C28C	MDCK	plaque count	EC50	-	0.01 µg/mL
O=C1[C@@H](Cc2ccc(O)cc2)NC(=S)N1c1ccccc1	HIV-2	-	MT-4	cytopathic effect / XTT	inhibition	100 µg/mL	100%
NCCS(=O)(=O)O	Rhinovirus	-	Human embryonic lung cells	cytopathic effect	inhibition	5 µg/mL	15%
O=C(Nc1ccncc1)Nc1cc(C(F)(F)F)cc(C(F)(F)F)c1	Escherichia coli	ES142	-	-	MIC	-	>300 µM
O=C(Nc1cc(S(=O)(=O)O)cc2cc(S(=O)(=O)O)cc(O)c12)c1ccccc1	Adenovirus	TYPE 3	Human amnion AV3 cells	cytopathic effect	inhibition	10 µg/mL	0%
Oc1cccc(C=Nc2ccccc2O)c1	Cryptococcus gattii	1913 ER	-	-	MIC99	-	8 µg/mL
N=C(N)c1ccc2nc(-c3ccc(-c4nc5ccc(C(=N)N)cc5[nH]4)[nH]3)[nH]c2c1	Candida albicans	Isolate CA2256 fluconazole-resistant	-	-	MFC	-	0.78 µg/mL
Nc1nc2c(ncn2COC(CO)CO)c(=O)[nH]1	Human cytomegalovirus	R56	-	virus yield	EC95	-	2.9 µM
Cc1ccc(C(=O)Nc2ccc(S(=O)(=O)O)c3cc(S(=O)(=O)O)cc(S(=O)(=O)O)c23)cc1NC(=O)c1cccc(NC(=O)Nc2cccc(C(=O)Nc3cc(C(=O)Nc4ccc(S(=O)(=O)O)c5cc(S(=O)(=O)O)cc(S(=O)(=O)O)c45)ccc3C)c2)c1	Adenovirus	TYPE 3	Human amnion AV3 cells	cytopathic effect	inhibition	10 µg/mL	0%
C[C@@H](c1nc(-c2ccc(C#N)cc2)cs1)[C@](O)(Cn1cncn1)c1cc(F)ccc1F	Cryptococcus gattii	VG IIb	-	broth dilution	MIC90	-	0.25 µg/mL
Cc1cc(-c2ccc(N=Nc3c(S(=O)(=O)O)cc4cc(S(=O)(=O)O)cc(N)c4c3O)c(C)c2)ccc1N=Nc1c(S(=O)(=O)O)cc2cc(S(=O)(=O)O)cc(N)c2c1O	Rhinovirus	-	Human embryonic lung cells	cytopathic effect	inhibition	50 µg/mL	30%
Oc1ccc(O)c(C=Nc2ccccc2O)c1	Cryptococcus neoformans	LMM 820	-	-	MIC99	-	5.7 µg/mL

Repeating the first 5 entries:

smiles	agent	strain or isolate	cells	method	read-out	dose	result
O=C(NNC(=O)Nc1cc(C(F)(F)F)cc(C(F)(F)F)c1)Nc1ccccc1	Escherichia coli	ES142	-	-	MIC	-	>200 µM
CC(=O)N[C@H]1[C@H]([C@H](O)[C@H](O)CO)OC(C(=O)O)=C[C@@H]1N=C(N)N	Influenza A virus	H1N1 A/NWS/33	MDCK	visual reading	EC50	-	60 µM
O=c1[nH]c(=O)n([C@H]2C[C@H](O)[C@@H](CO)O2)cc1/C=C/Br	Varicella zoster virus	HIRAI	HELF	plaque count	inhibition	0.001 µg/mL	4%
O=C(NCCc1ccccc1)Nc1nc2ccc(F)cc2s1	HIV-2	-	MT-4	cytopathic effect / XTT	inhibition	10 µg/mL	12%
Nc1ncnc2c1ncn2[C@@H]1CC[C@@H](O)[C@H]1O	Measles virus	TN1994	CV-1	cytopathic effect	EC50	-	0.1 µg/mL